Taken from: PubChem BioAssay AID1259414 (Drosophila RNAi Screening Center, 2018)
Test: 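Host factors increasing or decreasing Wolbachia levels in cultured fly cells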 (primary screen). System: Drosophila JW18 cells infected with Wolbachia. Reagents: long dsRNA against Drosophila genes, 0.25 µg dsRNA per well of a 384-well plate. Duration: 5 days. Conditions: cells persistently infected with Wolbachia before knock-down; no added drug. Measurement: 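Automated imaging of bacterial rRNA staining divided by host cell count, reported as plate-normalised robust z-score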. Direction: Wolbachia per cell robust z: higher = more Wolbachia per host cell than the plate typical. Hit rule: 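Active if absolute robust z reaches 1.5 in two or more of three replicates, leaving out multi- or no-target dsRNAs, genes unexpressed in JW18 and A1 wells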.
In all, the deposit lists about 24,000 reagents; below is a random part of those with a known target gene and a result. In the full data, about 1,210 (5%) got an active call. 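Inactive calls also include excluded dsRNAs with several or no targets, genes unexpressed in JW18, and well A1, regardless of score.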 Unmarked entries are inactive. Reagents against one gene are numbered here. Names joined by + are all predicted targets of the reagent.

no.	Gene	reagent	Wolbachia per cell robust z, rep 1	Wolbachia per cell robust z, rep 2	Wolbachia per cell robust z, rep 3
1	CG1979	1	0.365	-0.0937	0.142
2	CG1979	2	0.391	-1.44	0.359
3	TotE (Turandot E)	1	0.913	1.01	-0.539
4	Vps26 (Vacuolar protein sorting 26)	1	0.726	-0.521	0.456
5	Vps26 (Vacuolar protein sorting 26)	2	2.5	-1.02	0.578
6	CG18586	1	0.82	1.25	0.175
7	CG42237	1	-1.82	0.682	0.581
8	His2B:CG17949 + His2B:CG33868 + His2B:CG33876 + 20 more	1	4.2	1.81	2.01
9	CG33299	1	-1.07	-1.83	-2.81
10	CG33299	2	-0.721	-0.701	0.255
11	Sec8 (Secretory 8)	1	-0.169	0.641	1.04
12	CG1227	1	0.989	1.02	-1.28
13	CG1227	2	-5.39	0.2	-0.702
14	CG1806	1	-3.57	0.368	1.13
15	CG34190	1	0.515	1.26	-0.285
16	Sirt7 (Sirtuin 7)	1	1.46	-10.7	0.366
17	Sirt7 (Sirtuin 7)	2	-0.0903	-0.48	0.399
18	wam (wampa)	1	0.815	0.258	0.436
19	Osi3 (Osiris 3)	1	-3.33	-3	0.723
20	CG12951	1	-0.128	0.589	-0.0577
21	CG12951	2	-0.281	0.445	0.637
22	CG17328	1	-2.64 (active)	-1.91	-1.01
23	CG17328	2	1.39	1.37	0.616
24	CG17328	3	-1.31	-0.0531	-0.57
25	lncRNA:CR31044 (long non-coding RNA::CR31044)	1	0.0195	0.239	-4
26	lncRNA:CR31044 (long non-coding RNA::CR31044)	2	0.359	0.584	0.3
27	Fadd (Fas-associated death domain)	1	0.731	0.807	0.231
28	Gyc89Da (Guanylyl cyclase at 89Da)	1	-4.99	-0.454	-1.44
29	CG17107	1	-0.249	0.258	0.0565
30	CG17107	2	-0.443	-0.868	-1.38
31	CG17107	3	0.162	-0.452	-0.709
32	Grl43a (Gustatory receptor-like 43a)	1	-0.373	-1.15	-0.298
33	spri (sprint)	1	-1.11	0.306	0.257
34	spri (sprint)	2	-4.48	-0.968	-1.49
35	spri (sprint)	3	0.618	0.128	-3.37
36	spri (sprint)	4	-0.638	0.975	0.954
37	spri (sprint)	5	-0.364	0.513	-0.0289
38	spri (sprint)	6	0.423	0.862	0.181
39	CG1103 + Skp2	1	-2.21	0.32	1.18
40	CG1103 + Skp2	2	-0.533	-0.331	-0.419
41	slf (schlaff)	1	-0.784	0.0725	-0.624
42	slf (schlaff)	2	0.693	1.31	0.666
43	alphaCOP (Coat Protein (coatomer) alpha)	1	-0.0788	-0.658	1.08
44	CG12071	1	-2.78	-0.727	0.0653
45	Sse (Separase)	1	2.8 (active)	1.63	1.35
46	caup (caupolican)	1	-0.697	-0.582	0.232
47	Lnk	1	0.532	0.586	0.28
48	Ada3 (transcriptional Adaptor 3)	1	0.601	1.46	-4.46
49	Ada3 (transcriptional Adaptor 3)	2	0.929	1.35	-0.441
50	CG43322	1	-3.34	-0.304	-0.314
51	CG43322	2	-0.0762	-0.34	-0.31
52	Tre1 (Trapped in endoderm 1)	1	0.609	0.346	0.692
53	Tre1 (Trapped in endoderm 1)	2	0.834	2.15	0.739
54	Tret1-1 (Trehalose transporter 1-1)	1	-1.1	-2.65	-1.05
55	Tret1-1 (Trehalose transporter 1-1)	2	0.273	0.512	0.235
56	Tret1-1 (Trehalose transporter 1-1)	3	1.05	0.721	-0.653
57	rst (roughest)	1	-1.27	-1.18	-1.05
58	rst (roughest)	2	-0.731	-0.0921	-3.5
59	rst (roughest)	3	0.654	2.63	1.26
60	rst (roughest)	4	-1	-1.09	-0.071
61	Nak (Numb-associated kinase)	1	0.0387	0.0757	-1.23
62	Nak (Numb-associated kinase)	2	-1.14	-2.94	-0.683
63	CG30371	1	1.03	1.47	1.33
64	eEF2 (eukaryotic translation elongation factor 2)	1	1.2	1.34	1.39
65	CG7772	1	-0.66	0.0356	-0.0555
66	CG11403	1	-0.326	2.32	-0.296
67	CG30286	1	-0.897	-4.93	0.0173
68	l(2)k14505 (lethal (2) k14505)	1	-7.6	-0.612	-0.327

In a second layout: entries from further up
lncRNA:CR31044 (long non-coding RNA::CR31044) #2 — Wolbachia per cell robust z, rep 1: 0.359; Wolbachia per cell robust z, rep 2: 0.584; Wolbachia per cell robust z, rep 3: 0.3
Fadd (Fas-associated death domain) — Wolbachia per cell robust z, rep 1: 0.731; Wolbachia per cell robust z, rep 2: 0.807; Wolbachia per cell robust z, rep 3: 0.231
Gyc89Da (Guanylyl cyclase at 89Da) — Wolbachia per cell robust z, rep 1: -4.99; Wolbachia per cell robust z, rep 2: -0.454; Wolbachia per cell robust z, rep 3: -1.44
CG17107 #1 — Wolbachia per cell robust z, rep 1: -0.249; Wolbachia per cell robust z, rep 2: 0.258; Wolbachia per cell robust z, rep 3: 0.0565
CG17107 #2 — Wolbachia per cell robust z, rep 1: -0.443; Wolbachia per cell robust z, rep 2: -0.868; Wolbachia per cell robust z, rep 3: -1.38
CG17107 #3 — Wolbachia per cell robust z, rep 1: 0.162; Wolbachia per cell robust z, rep 2: -0.452; Wolbachia per cell robust z, rep 3: -0.709
